Experiment [1] deals with C. albicans. Put plainly: Antifungal Activity Assay (broth microtiter MIC), C. albicans. As to conditions: 3 replicates, MIC recorded at 48 h. It counts as cell-based, Candida albicans. As for the experimental part:
(§1) Compounds of the present invention were evaluated in an Antifungal Activity Assay. An exemplary procedure for the assay, which measures the susceptibility of various Candida species to antifungal compounds, follows. Compounds to be tested (including fluconazole and amphotericin B) were dissolved in DMSO to obtain a solution having a concentration of 1 mg/mL. These stock solutions were sterile filtered using a 0.22 um nylon syringe filter, then diluted in sterile water to achieve a final concentration of 128 μg/mL.
(§2) All species were grown from frozen stock by directly plating on to freshly prepared Sabouraud Dextrose agar (BD, Difco) and incubated overnight in ambient air at 35° C. for 24 h. […] The concentration of the suspension was determined using pre-determined standard curves. […]
(§3) Broth microtiter MIC challenge plates were prepared following CLSI guidelines (M27-A3, Vol. 28 No. 14). The original CLSI guidelines focused on reading Candida MICs after 48 h of incubation. As reading after only 24 h offers a clear advantage of patient care, QC limits are being established for all drugs at 24 h. That being said there are no known interpretive breakpoints for amphotericin B at 24 h and the current fluconazole interpretive breakpoints are based on a 48 h reading. The MICs for the test compounds were recorded at 48 h. […]

Amino acid sequences for entries named in this document (tags omitted).
UniProt Q00955, whole entry: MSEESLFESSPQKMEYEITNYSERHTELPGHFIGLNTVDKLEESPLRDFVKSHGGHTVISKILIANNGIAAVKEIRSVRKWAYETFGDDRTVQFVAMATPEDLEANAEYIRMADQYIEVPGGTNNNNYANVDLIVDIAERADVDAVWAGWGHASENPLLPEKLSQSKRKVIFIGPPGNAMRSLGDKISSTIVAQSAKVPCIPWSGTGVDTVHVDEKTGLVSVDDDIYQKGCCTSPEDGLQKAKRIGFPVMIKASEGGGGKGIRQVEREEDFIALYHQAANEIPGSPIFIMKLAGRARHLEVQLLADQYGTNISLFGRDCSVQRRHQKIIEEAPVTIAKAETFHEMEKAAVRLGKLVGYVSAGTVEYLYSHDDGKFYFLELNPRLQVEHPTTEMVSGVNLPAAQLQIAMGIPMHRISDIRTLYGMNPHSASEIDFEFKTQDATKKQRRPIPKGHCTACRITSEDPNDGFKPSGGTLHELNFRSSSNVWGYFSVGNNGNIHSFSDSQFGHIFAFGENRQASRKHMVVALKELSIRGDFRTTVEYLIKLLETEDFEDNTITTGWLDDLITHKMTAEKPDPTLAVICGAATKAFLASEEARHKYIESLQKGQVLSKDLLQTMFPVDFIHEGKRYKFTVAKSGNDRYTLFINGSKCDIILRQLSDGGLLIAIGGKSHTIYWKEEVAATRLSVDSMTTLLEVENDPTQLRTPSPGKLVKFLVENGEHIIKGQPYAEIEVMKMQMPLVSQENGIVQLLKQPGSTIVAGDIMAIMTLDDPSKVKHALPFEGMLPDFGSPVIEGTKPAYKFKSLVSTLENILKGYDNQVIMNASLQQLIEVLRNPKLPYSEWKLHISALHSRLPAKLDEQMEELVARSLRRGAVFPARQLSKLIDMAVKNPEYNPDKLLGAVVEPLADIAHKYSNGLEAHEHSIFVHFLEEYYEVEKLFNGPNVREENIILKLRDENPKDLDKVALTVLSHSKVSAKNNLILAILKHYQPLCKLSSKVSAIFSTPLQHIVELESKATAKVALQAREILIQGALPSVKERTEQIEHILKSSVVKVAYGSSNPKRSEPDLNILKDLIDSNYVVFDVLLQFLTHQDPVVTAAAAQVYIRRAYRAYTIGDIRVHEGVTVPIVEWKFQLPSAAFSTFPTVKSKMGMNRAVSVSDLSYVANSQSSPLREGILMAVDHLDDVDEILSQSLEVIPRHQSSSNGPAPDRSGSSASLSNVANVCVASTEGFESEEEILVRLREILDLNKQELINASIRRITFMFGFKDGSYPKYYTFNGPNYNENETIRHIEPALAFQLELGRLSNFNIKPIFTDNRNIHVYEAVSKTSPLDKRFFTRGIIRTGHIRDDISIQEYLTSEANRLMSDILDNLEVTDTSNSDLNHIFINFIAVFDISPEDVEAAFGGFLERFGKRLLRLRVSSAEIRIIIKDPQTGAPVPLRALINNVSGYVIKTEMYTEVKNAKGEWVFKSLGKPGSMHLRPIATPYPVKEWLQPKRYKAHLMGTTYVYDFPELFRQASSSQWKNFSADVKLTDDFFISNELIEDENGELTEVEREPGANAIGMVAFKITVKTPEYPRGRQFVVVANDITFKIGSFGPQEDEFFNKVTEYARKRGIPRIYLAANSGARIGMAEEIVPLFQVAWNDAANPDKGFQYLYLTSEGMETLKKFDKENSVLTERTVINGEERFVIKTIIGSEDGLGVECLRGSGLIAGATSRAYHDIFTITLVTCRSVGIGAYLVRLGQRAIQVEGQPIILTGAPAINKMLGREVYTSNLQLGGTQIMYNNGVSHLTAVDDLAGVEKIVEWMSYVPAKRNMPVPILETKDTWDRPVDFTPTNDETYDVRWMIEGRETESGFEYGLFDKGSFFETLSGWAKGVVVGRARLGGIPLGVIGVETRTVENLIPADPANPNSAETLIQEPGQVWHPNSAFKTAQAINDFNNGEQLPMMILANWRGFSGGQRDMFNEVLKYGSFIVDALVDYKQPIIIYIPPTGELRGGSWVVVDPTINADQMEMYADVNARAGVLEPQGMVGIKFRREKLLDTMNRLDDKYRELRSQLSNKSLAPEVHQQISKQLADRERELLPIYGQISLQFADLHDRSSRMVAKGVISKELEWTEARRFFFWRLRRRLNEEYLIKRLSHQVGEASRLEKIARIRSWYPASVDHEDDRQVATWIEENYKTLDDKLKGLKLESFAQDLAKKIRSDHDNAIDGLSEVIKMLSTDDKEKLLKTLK

The target in experiment [2] is fungal (fACC2) (UniProt Q00955).
The test system of experiment [3] is C. krusei. Briefly: Antifungal Activity Assay (broth microtiter MIC), C. krusei. The format is cell-based, Candida krusei. As to conditions: 3 replicates, MIC recorded at 48 h. As for the experimental part: as §1, §2, §3
The test system of experiment [4] is C. parapsilosis. Put plainly: Antifungal Activity Assay (broth microtiter MIC), C. parapsilosis. The format is cell-based, Candida parapsilosis. As to conditions: 3 replicates, MIC recorded at 48 h. As for the experimental part:
as §1, §2, §3

Several values for one entry are separate records, joined by “and”; a condition that tells them apart may be missing. Equal entries are not always repeated.

On to `COc1ccc(F)cc1[C@@H](Cn1c(=O)n([C@@H](C)C(=O)N(C)C(C)C)c(=O)c2c(C)c(-n3nccn3)sc21)OCCO`, for which the figures for the “MIC, C. albicans ATCC 90028” value in experiment [1] (Table 3a) and in experiment [1] (Table 3b (additional results)) were “C (MIC of 2.1-4.0 μg/mL)” and “B (MIC of 1.01-2.0 μg/mL)”, respectively. Further, the IC50 in experiment [2] was 0.4 to 1 nM and 0.3 to 1 nM. In addition, the figures for the “MIC, C. krusei ATCC 6258” value in experiment [3] (Table 3a) and in experiment [3] (Table 3b (additional results)) were “C (MIC of 2.1-4.0 μg/mL)” and “B (MIC of 1.01-2.0 μg/mL)”, respectively. Also, the results for the “MIC, C. parapsilosis ATCC 22019” value in experiment [4] (Table 3a) and in experiment [4] (Table 3b (additional results)) were “C (MIC of 2.1-4.0 μg/mL)” and “C (MIC of 2.01-4.0 μg/mL)”, respectively.

As usually defined, the IC50 is the midpoint of a concentration-inhibition curve. A low value points to inhibition by little substance.
